Laboratory results published in paper PMC10812672, “Short Antimicrobial Peptide Derived from the Venom Gland Transcriptome of Pamphobeteus verdolaga Increases Gentamicin Susceptibility of Multidrug-Resistant Klebsiella pneumoniae” (Antibiotics, 2023).
Ends that are not written are not given here.

Test system: MDR K. pneumoniae
Format: cell-based, Klebsiella pneumoniae
Procedure: Given the intermediate resistance to gentamicin, an isobologram analysis was used as a proof-of-concept to evaluate the interaction between PvAMP66 and the antibiotic. The growth inhibition of the clinical isolate was measured using peptide concentrations of 0.10–100 µM, and gentamicin concentrations of 0.10–50 µM (Supplementary Figure S10). Combined IC50 values were calculated and plotted in a graph with a secant line representing the IC50 values for PvAMP66 and gentamicin when used alone (Figure 2a). […] The concentrations adjacent to the aforementioned data point were evaluated. […] Additionally, a Fractional Inhibitory Concentration Index (FICI) of 0.59 was obtained.
For the isobologram analysis concentrations, ranges of 1.56 µM to 200 µM of the peptide and 0.07 µM to 100 µM of the gentamicin were used. The experiments were conducted in triplicate and repeated in two independent assays. The IC50 for each combination was determined using either logarithmic or linear regression. Then, when achieving 50% growth inhibition, the concentrations of the peptide and gentamicin were recorded and used to create an isobologram graph with a ‘peptide concentration’ vs. ‘gentamicin concentration’ plot. Within the graph, both axes were connected in line with an origin at the IC50 value of the peptide and gentamicin alone in the Y and X-axis, respectively. The presence of data distributed below the line indicated a synergistic interaction, data distributed above or close to the line in a parallel fashion represented an additive interaction, and finally, data distributed above the line represented an antagonistic interaction. The fractional inhibitory concentration index was calculated as follows: FICI=Combined MICAntibiotic/MICAntibiotic+Combined MICPeptide/MICPeptide

Compound | fold reduction in the MIC (combination of 4.70 µM gentamicin and 12.50 µM PvAMP66 vs alone) [fold] | fold reduction in the IC50 for gentamicin (combination vs gentamicin alone) [fold] | Fractional Inhibitory Concentration Index (FICI) (PvAMP66 12.50 µM with gentamicin 4.70 µM, additive)
CNC(C)C1CCC(N)C(OC2C(N)CC(N)C(OC3OCC(C)(O)C(NC)C3O)C2O)O1 (stereo not drawn) [Gentamicin, gentamicin] | 10.64 | 10.68 | –
WKKIKKFF-NH2 [PvAMP66] | – | – | 0.59
